{"source": "paper PMC4890791", "test_in_all_cases": "EMSA", "key": {"[1]": {"system": "LuxR (Vibrio alginolyticus)", "conditions": "two shifted bands; EMSA: 10 mM NaCl, 0.1 mM DTT, 0.1 mM EDTA, 10 mM Tris pH 7.4, 25 C 30 min (22-42 C series in Fig 5C), 20 ng Cy5 probe, poly(dI:dC); recombinant protein; protein details: 6His (pET28a); label: Cy5; probe letters rebuilt from the primers and the genome"}, "LuxR + AphA": {"system": "LuxR + AphA", "conditions": "simultaneous binding, slower band; EMSA: 10 mM NaCl, 0.1 mM DTT, 0.1 mM EDTA, 10 mM Tris pH 7.4, 25 C 30 min (22-42 C series in Fig 5C), 20 ng Cy5 probe, poly(dI:dC); recombinant protein; protein details: 6His (pET28a),6His (pET28a); label: Cy5; probe letters rebuilt from the primers and the genome"}, "RpoE (sigma E) + LuxR": {"system": "RpoE (sigma E) + LuxR", "conditions": "cooperative, slower band; EMSA: 10 mM NaCl, 0.1 mM DTT, 0.1 mM EDTA, 10 mM Tris pH 7.4, 25 C 30 min (22-42 C series in Fig 5C), 20 ng Cy5 probe, poly(dI:dC); recombinant protein; protein details: 6His (pET22b),6His (pET28a); label: Cy5; probe letters rebuilt from the primers and the genome"}, "[2]": {"target": "T1, RpoE (sigma E) (Vibrio alginolyticus (EPGS)) (UniProt A0A0H0YA85)", "T1 sequence": "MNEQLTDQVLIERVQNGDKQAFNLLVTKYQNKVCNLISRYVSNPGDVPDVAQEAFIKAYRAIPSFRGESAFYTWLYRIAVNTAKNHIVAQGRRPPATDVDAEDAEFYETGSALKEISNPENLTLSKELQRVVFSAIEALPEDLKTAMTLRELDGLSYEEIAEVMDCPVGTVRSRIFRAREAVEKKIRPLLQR", "conditions": "EMSA: 10 mM NaCl, 0.1 mM DTT, 0.1 mM EDTA, 10 mM Tris pH 7.4, 25 C 30 min (22-42 C series in Fig 5C), 20 ng Cy5 probe, poly(dI:dC), recombinant protein, protein details: 6His (pET22b), label: Cy5, probe letters rebuilt from the primers and the genome"}}, "note": "The exact form of at least one protein or probe is not confirmed.", "data": [{"sequence": "AGTCGCACGCAAACGATCACCTAATCTTACGGCGTGTAGTGTATCACCACGTTCATTGGGTTGAAAGTCGCATCCTGTTGCCAAAAAATCTTGGAAGAAGGTCTTAGTTTTATAAAGTTCATAGCTAAATTTATCAATAATAATGACATTACTGTATATAAATTGTTCTACAGATGTTGACCTTGTGCATATGCACCATTACACTCATCACTGCTTTAAGCAACTATTAAAATAATCAATTAGGGGGTTACCCCCAATATCAACTCAAATGGCAAGGAAAATGGAT (double strand) [PluxR]", "values": [{"measurement": "binding result", "setting": "[1]", "value": "binds"}, {"measurement": "binding result", "setting": "LuxR + AphA", "value": "binds"}, {"measurement": "binding result", "setting": "RpoE (sigma E) + LuxR", "value": "binds"}]}, {"sequence": "TTGTACGATAGCCAGTTCCGCCTGATTGGTCTAAGTTGGGATGAATCTTTGTTACTAATCATCATTGGGAGTCTTTTGGGATGTATTGCGGCGCGCTTTTCTGCGCAACGACATTTAAAAGAAATTGAACCAGTTTAAGTGATGGCGGTCTTATTACTTGGATTTCATTAGCACTAGCTAATTTTGAACCCTTGCTTAGACCAAATGTTTATGGATAATTGCTTCCCCTTCTTGAAACTTGTTCATTTTGAGTTCAAGATATCGAAGCTAAATTGCAATGTAATGCTCCAGATCAGAG (double strand) [PrpoH]", "values": [{"measurement": "binding result", "setting": "[2]; 22 C, high affinity", "value": "binds"}, {"measurement": "Kd", "setting": "[2]; 42 C", "value": 75, "unit": "nM"}]}]}
